Results on 40 test systems are retold here after the supplement of paper PMC3578754.

Compound in one test: CC(C)(C)NC(=O)[C@@H]1CN(Cc2cccnc2)CCN1C[C@@H](O)C[C@@H](Cc1ccccc1)C(=O)N[C@H]1c2ccccc2C[C@H]1O [indinavir]
The experiment in a line: fold change of IC50 against reference virus; higher = more resistant; Cell-culture drug susceptibility tests of virus bearing the protease of each isolate, gathered from many studies.

Compound in the next test: CC(C)(C)NC(=O)[C@@H]1C[C@@H]2CCCC[C@@H]2CN1C[C@@H](O)[C@H](Cc1ccccc1)NC(=O)[C@H](CC(N)=O)NC(=O)c1ccc2ccccc2n1 [saquinavir]
The description is as above.

Compound in a further test: CC(C)c1nc(CN(C)C(=O)N[C@H](C(=O)N[C@@H](Cc2ccccc2)C[C@H](O)[C@H](Cc2ccccc2)NC(=O)OCc2cncs2)C(C)C)cs1 [ritonavir]
The description is as above.

Compound in a further test: COC(=O)N[C@H](C(=O)N[C@@H](Cc1ccccc1)[C@@H](O)CN(Cc1ccc(-c2ccccn2)cc1)NC(=O)[C@@H](NC(=O)OC)C(C)(C)C)C(C)(C)C [atazanavir]
The test is described as above.

Compound in a further test: Cc1c(O)cccc1C(=O)N[C@@H](CSc1ccccc1)[C@H](O)CN1C[C@H]2CCCC[C@H]2C[C@H]1C(=O)NC(C)(C)C [nelfinavir]
The test is described as above.

Compound in another test: Cc1ccnc2c1NC(=O)c1cccnc1N2C1CC1 [nevirapine]
The experiment in a line: fold change of IC50 against reference virus; higher = more resistant. The method, then:
(§1)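 Cell-culture drug susceptibility tests of virus bearing the reverse transcriptase of each isolate, gathered from many studies.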

Compound in the next test: Cc1cn([C@H]2C[C@H](N=[N+]=[N-])[C@@H](CO)O2)c(=O)[nH]c1=O [zidovudine]
The test is described as above. The method, then: as §1

Compound in a further test: O=c1[nH]cnc2c1ncn2[C@H]1CC[C@@H](CO)O1 [didanosine]
Described as above. The procedure:
as §1

Fold change is the IC50 on the isolate divided by the IC50 on a reference virus; 1 = unchanged, higher = more resistant. Changes are given against the subtype B consensus. No active / inactive call. The values were gathered from many studies (numbered anew) with different assays, which the source does not name. Most viruses are clinical isolates; some are laboratory strains or clones with known resistance changes. Isolates with mixed residues are left out; stretches that were not sequenced show no change. Round top values that many isolates share are read here as limits; other very high values and 0.1 may be limits too. For some assays here: The protease changes I3V and N37S, insertions and deletions cannot be read from the source.

For the test system “HIV-1 isolate 1430 (protease changes: V32I L33F M46I A71V I84V N88S, study 43)”, the “fold change of IC50 against reference virus” value (shortened to “fold change of IC50”) was found to be 36 with indinavir; 2 with saquinavir; 54 in the test with ritonavir; 183 with atazanavir; 21 in the test with nelfinavir.
As to “HIV-1 isolate 279 (protease changes: L10I I62V L63P G73T L90M I93L, study 24)”, the “fold change of IC50” value with indinavir came out at 17; with saquinavir, 11; in the test with ritonavir it was 11; with atazanavir it was 12; with nelfinavir it was 17.
In the case of “HIV-1 isolate 23 (protease changes: L10F I13V K14R D30N L33I E35D M36I R41K I64V N88D, study 115)”, the “fold change of IC50” value with indinavir is 2.6; with saquinavir it was 2.7; with ritonavir it was 1.8; in the test with atazanavir it was 7.4; with nelfinavir, 82.
With “HIV-1 isolate 492 (protease changes: N88S, study 43)”, the “fold change of IC50” value with atazanavir was 4.
On to “HIV-1 isolate 173 (protease changes: I50L A71V, study 115)”, for which the “fold change of IC50” value with indinavir was 0.3; with ritonavir, 0.2; with atazanavir it was 10; with nelfinavir, 0.3.
With “HIV-1 isolate 348 (protease changes: V32I M46I I47V V82I, study 43)”, the “fold change of IC50” value with indinavir came to 11; with saquinavir, 1; with ritonavir, 16; with atazanavir, 2; with nelfinavir, 11.
For “HIV-1 isolate 438 (protease changes: R57G, study 108)”, the “fold change of IC50” value with indinavir, in the test with saquinavir, with atazanavir and in the test with nelfinavir was 1 in each case.
“HIV-1 isolate 8 (protease changes: L10Y I50L L63P A71V N88S, study 43)”: the “fold change of IC50” value in the test with atazanavir turned out to be 93.
Turning to “HIV-1 isolate 1618 (protease changes: L10I I13V K14R L19I E35D N37Q R57K L63P V77I, study 101)”, the “fold change of IC50” value with saquinavir is 0.8; in the test with ritonavir, 1.4; in the test with atazanavir it was 0.9; in the test with nelfinavir it was 1.7.
“HIV-1 isolate 603 (protease changes: E35D M36I R41K I50L R57K I62V L63P I93L, study 115)”: the “fold change of IC50” value in the test with indinavir turned out to be 0.4; with saquinavir, 0.3; with ritonavir, 0.2; with atazanavir, 8.8; in the test with nelfinavir, 0.9.
“HIV-1 isolate 455 (protease changes: V32I M46I V82F I84V, study 43)”: the “fold change of IC50” value is 24 with indinavir; 1 with saquinavir; 72 in the test with ritonavir; 9 in the test with atazanavir; 8 in the test with nelfinavir.
On to “HIV-1 isolate 1275 (protease changes: I15V K20R E35D M36I I54V I62V L63Q I64V V82A L90M, study 24)”, for which the “fold change of IC50” value with indinavir is 6; with saquinavir, 3; with ritonavir, 58; with atazanavir it was 4; with nelfinavir, 11.
For the test system “HIV-1 isolate 1017 (protease changes: K20I M36I M46I Q61E I62V L63P A71V I72M V82F L90M I93L, study 65)”, the “fold change of IC50” value amounted to 1.5 with saquinavir, 100 with ritonavir, 15 with atazanavir and 56 with nelfinavir.
For “HIV-1 isolate 1028 (protease changes: L10I E35D M36V K43T M46L I54V D60E I62V L63P A71V V82A I84V L90M, study 108)”, the “fold change of IC50” value with indinavir turned out to be 63; in the test with saquinavir, 43; with atazanavir, 80; with nelfinavir, 47.
The corresponding values for “HIV-1 isolate 536 (protease changes: L10Y I50L A71V N88S, study 43)” are 1, 1, 36 and 1.
Turning to “HIV-1 isolate 867 (protease changes: L10F I13V D30N R41K I50L I62V L63P K70R A71T N88D I93L, study 115)”, the “fold change of IC50” value with indinavir came out at 0.1; in the test with ritonavir it was 0.1; with atazanavir, 22; in the test with nelfinavir, 6.
Take “HIV-1 isolate 1308 (protease changes: L10Y I50L A71V N88S, study 43)”: the “fold change of IC50” value with atazanavir was 36.
With “HIV-1 isolate 568 (protease changes: I50L, study 115)”, the “fold change of IC50” value in the test with indinavir was found to be 0.1; with ritonavir, 0.1; in the test with atazanavir, 2; in the test with nelfinavir, 0.1.
On to “HIV-1 isolate 633 (protease changes: D30N N37D L63P H69Y V77I N88D I93L, study 15)”, for which the “fold change of IC50” value in the test with indinavir is 1; with ritonavir it was 0.6; with atazanavir, 1.3.
“HIV-1 isolate 469 (protease changes: I50L A71V, study 115)”: the “fold change of IC50” value with indinavir was 0.1; in the test with ritonavir it was 0.2; with atazanavir it was 6; in the test with nelfinavir, 0.2.
Consider “HIV-1 isolate 1634 (protease changes: A71V, study 115)”, for which the “fold change of IC50” value was determined as 0.6 with indinavir, 0.5 in the test with ritonavir, 2.4 with atazanavir and 1.1 in the test with nelfinavir.
On to “HIV-1 isolate 191 (protease changes: V32I M46I A71V N88S, study 43)”, for which the “fold change of IC50” value in the test with atazanavir turned out to be 12.
In the case of “HIV-1 isolate 1197 (protease changes: L10I I13V K14R L19I K20R V32I E35D M36I N37Q K43P M46I F53L I54M R57K L63P A71V G73S V77I I85V L89V L90M, study 101)”, the “fold change of IC50” value with saquinavir is 59; with ritonavir it was 158; with atazanavir it was 108; in the test with nelfinavir it was 76.
“HIV-1 isolate 743 (protease changes: I50L, study 115)”: the “fold change of IC50” value with indinavir amounted to 0.1; with ritonavir, 0.3; with atazanavir, 3; in the test with nelfinavir, 0.1.
Consider “HIV-1 isolate 950 (protease changes: M46I N88S, study 43)”, for which the “fold change of IC50” value with atazanavir is 6.
For “HIV-1 isolate 147 (protease changes: R8Q L10F T12A I13V D30N E35D M36I M46V I62V L63P I64L A71T V77I N88D, study 115)”, the “fold change of IC50” value was 1.2 with indinavir, 0.9 in the test with ritonavir, 1.5 with atazanavir and 31 with nelfinavir.
The corresponding values for “HIV-1 isolate 1599 (protease changes: L10F I13V L23I D30N R41K I62V L63P K70R A71T N88D I93L, study 115)” are 2.3, 0.8, 7.6 and 142.
With “HIV-1 isolate 630 (protease changes: V32I M46I R57G I84V, study 43)”, the “fold change of IC50” value with atazanavir turned out to be 6.
Still for that read-out and setting: as for “HIV-1 isolate 1098 (protease changes: V32I M46I R57G I84V L89M, study 43)”, the figure is 96.
Take “HIV-1 isolate 1158 (protease changes: I50L, study 115)”: the “fold change of IC50” value was 0.1 with indinavir, 0.1 with ritonavir, 5.4 in the test with atazanavir and 0.2 in the test with nelfinavir.
In the case of “HIV-1 isolate 1317 (protease changes: R57G, study 115)”, the “fold change of IC50” value in the test with indinavir, in the test with ritonavir, in the test with atazanavir and with nelfinavir was 1 throughout.
Consider “HIV-1 isolate 1084 (protease changes: I50L A71V, study 115)”, for which the “fold change of IC50” value in the test with indinavir worked out at 0.3; in the test with ritonavir, 0.2; in the test with atazanavir, 6; with nelfinavir, 0.3.
Consider “HIV-1 isolate 1020 (protease changes: A71V, study 115)”, for which the “fold change of IC50” value with indinavir came to 1; with ritonavir, 0.7; with atazanavir, 2; with nelfinavir, 1.3.
Consider “HIV-1 isolate 123 (protease changes: A71V, study 115)”, for which the “fold change of IC50” value with indinavir came to 1.2; with ritonavir, 2; in the test with atazanavir, 0.9; in the test with nelfinavir it was 1.4.
The matching figures for “HIV-1 isolate 1236 (protease changes: L10I I13V R41K, study 115)”: 1, 1, 1 and 1.
Regarding “HIV-1 isolate 971 (protease changes: L10I G16A R41K G48V I54T Q61H I62V L63Q A71V T74A V77I V82A I93L, study 108)”, the “fold change of IC50” value in the test with indinavir worked out at 66; with saquinavir it was 63; with atazanavir, 33; with nelfinavir it was 22.
Regarding “HIV-1 isolate 872 (protease changes: V32I L33F M46I A71V I84V N88S, study 43)”, the “fold change of IC50” value in the test with atazanavir was 183.
Consider “HIV-1 isolate 947 (reverse transcriptase changes: V35T T39E S48T K122E K173A D177E T200A R211K V245R, study 99)”, for which the “fold change of IC50” value with nevirapine amounted to 1; in the test with zidovudine it was 2; with didanosine it was 0.9.
As for “HIV-1 isolate 813 (protease changes: none, study 115)”, the “fold change of IC50” value in the test with indinavir, with ritonavir, with atazanavir and in the test with nelfinavir was 1 throughout.
Consider “HIV-1 isolate 1629 (reverse transcriptase changes: M41L L74V K122E Y181C F214L T215Y A272P K277R M357T A376T A400T N447S D460N S468T S519N, study 13)”, for which the “fold change of IC50” value in the test with nevirapine worked out at 60; with zidovudine it was 2; in the test with didanosine it was 7.1.
